Results reported in ChEMBL document CHEMBL1151385, “Antineoplastic Agents 78. Isolation of Palystatins 1-3 From the Indian Ocean Palythoa liscia” (J Nat Prod, 1982).

Species: Mus musculus
Test: Toxicity in mouse
Settings: in vivo

**Q.** `C=C(/C=C\C[C@@H](O)[C@@H](O)[C@H](O)C/C=C/C=C\[C@@H](O)C[C@@H]1O[C@H](C[C@@H](O)[C@H](O)C[C@H]2O[C@H]([C@H](O)[C@H](O)CC[C@H](O)/C=C/[C@H](C)[C@@H](O)C[C@]3(O)O[C@H](C[C@@H](O)CCCCCCC[C@@]45C[C@@H](C)C[C@@](C)(O4)[C@@H](C[C@@H](C)CCCCC[C@@H](O)[C@H](O)[C@H](O)[C@@H](O)[C@H](O)[C@H]4O[C@H](C[C@H](O)[C@H](O)/C(C)=C/[C@H](O)C[C@@H](C)[C@H](O)C(=O)N/C=C/C(=O)NCCCO)[C@H](O)[C@@H](O)[C@@H]4O)O5)[C@H](O)[C@@H](O)[C@H]3O)C[C@@H](O)[C@@H]2O)[C@@H](O)[C@H](O)[C@H]1O)CC[C@H](O)[C@@H](O)[C@H](O)[C@H](C)C[C@H]1O[C@H](/C=C\[C@@H](O)[C@H](O)C[C@@H]2C[C@@H]3C[C@H](O2)[C@@H](CC[C@H]2O[C@H](CN)C[C@H]2O)O3)[C@@H](O)[C@H](O)[C@H]1O` was tested. Which LD100 did it give?
**A.** The LD100 was 1.3 µg/kg.
